The entries are a selection whose mix differs from that of the whole data set. Active and inactive are the calls of the source.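 Rule for the calls: active = inhibition above the mean plus 3 SD of compounds within the control limits, set per campaign (cut at about 38% in these data); inactive = the rest.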
assay: late stage P. falciparum gametocyte viability inhibitors, primary screen, ATP luminescence, HTS (AID 743093);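 note: 0% = DMSO wells and 100% = medium only without gametocytes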; details: P. falciparum stage V gametocytes, 24 h, at 10.9 µM, active compounds read high

SMILES	inhibition
CC(C)c1ccc(OP(=O)(Nc2ccccn2)Oc2ccccc2F)cc1 (stereo not drawn)	inactive: 6.59%
CC(C)NC(=O)NP(=O)(Oc1ccccc1)Oc1ccccc1	inactive: -4.49%
CCN(CC)C(=S)SC(NC=O)C(Cl)(Cl)Cl (stereo not drawn)	inactive: -4.34%
O=C(OC1CN2CCC1CC2)c1cccc2[nH]cnc12 (stereo not drawn)	inactive: -11.6%
O=[As](O)(c1ccc(O)cc1)c1ccccc1O	inactive: 4.98%
COc1ccc(N/C(=N/P(=O)(N2CCOCC2)N2CCOCC2)N2CCOCC2)cc1	inactive: -35.4%
O=C(OC1CN2CCC1CC2)C12CC3CC(CC(C3)C1)C2 (stereo not drawn)	inactive: -38.4%
Cc1cc(=O)[nH]c(N[N+](=O)[O-])n1	inactive: -3.74%
Cc1c2c(nc3ccccc13)SC(C(Cl)Cl)C2 (stereo not drawn)	inactive: 17.5%
COc1ccc2nc(NP(=O)(c3ccccc3)c3ccccc3)sc2c1	inactive: -6.02%
COc1cc(I)ccc1[As](=O)(O)O	inactive: 22.1%
CCOC(=O)c1ccc(NC(=O)C(C)(CCl)SC)cc1 (stereo not drawn)	inactive: -0.63%
COP1(=S)c2c(C)nn(CCC#N)c2N=C(c2ccc(F)cc2)N1C (stereo not drawn)	inactive: -5.43%
Cc1cc(SC(NC=O)C(Cl)(Cl)Cl)ncn1 (stereo not drawn)	inactive: -17.8%
O=P(Nc1ccccn1)(c1cccc2ccccc12)c1cccc2ccccc12	inactive: 7.4%
CCOC(=O)Nc1ccc([As](=O)(O)O)c(O)c1	inactive: -0.59%
Cc1cc(SC(NC(=O)c2ccccc2)C(Cl)(Cl)Cl)nc(C(C)C)n1 (stereo not drawn)	inactive: -17.8%
O=P1(Nc2ncccn2)COc2ccccc2OC1	inactive: -7.96%
O=P1(Nc2ccc(Br)cn2)COc2ccccc2OC1	inactive: -7.49%
Nc1cccc([As](=O)(O)c2ccccc2)c1	inactive: 9.46%
CC1CCC(C(C)C)C(OP(=O)(Nc2ccccn2)c2ccccc2)C1 (stereo not drawn)	inactive: -23.7%

SMILES	inhibition
O=C(/C=C/c1ccccc1)OC1CN2CCC1CC2 (stereo not drawn)	inactive: 12.6%
CN(C)C1(CNC(=O)c2ccc(S(C)(=O)=O)cc2)CCCCC1	inactive: 5.2%
CC(C)/C=N\N=C(\N)N[N+](=O)[O-]	inactive: 6.3%
CCC1=CC2Cc3nc4ccc(Cl)cc4c(N)c3C(C1)C2 (stereo not drawn)	inactive: 3.08%
Clc1n[nH]nc1-c1nn[nH][15n]1	inactive: -26%
CC(C)(C)C(=O)NC(Sc1ncccn1)C(Cl)(Cl)Cl (stereo not drawn)	inactive: 10.3%
Cc1ccc(NCCc2c([N+](=O)[O-])cc([N+](=O)[O-])cc2[N+](=O)[O-])cc1	inactive: -3.19%
COc1cc(C2NCCC3(OCCO3)C2(C)C)cc(OC)c1OC (stereo not drawn)	inactive: 0.11%
CCOP(=O)(Nc1cccc2ccccc12)OCC	inactive: 6.59%
O=[As](O)(O)c1cccnc1	inactive: 12.8%
O=C(OC1CN2CCC1CC2)c1ccc(Cl)cc1 (stereo not drawn)	inactive: -3.68%
Cc1cccc(OCC(=O)OC2CN3CCC2CC3)c1 (stereo not drawn)	inactive: 11.3%
O=[As](O)(c1cccc(O)c1)c1cccc(O)c1	inactive: -5.03%
O=[N+]([O-])c1ccc2c(c1)nnn2O	inactive: -12.2%
CN(C)C(=O)c1cc([N+](=O)[O-])cc2c1-c1c(cc([N+](=O)[O-])cc1[N+](=O)[O-])C2=O	inactive: -34.9%
CCOP1(=S)c2c(C)nn(CCC#N)c2N=C(c2ccc(F)cc2)N1C (stereo not drawn)	inactive: -7.06%
CCOP1(=S)c2c(C)nn(CCC#N)c2N=C(c2ccccc2F)N1C (stereo not drawn)	inactive: -22.7%
O=P(Nc1nccs1)(Oc1ccccc1)Oc1ccccc1	inactive: 1.19%
Nc1ccccc1[As](=O)(O)c1ccccc1	inactive: 12.9%
Cc1ccc(OP(=O)(Nc2ccccn2)Oc2ccc(C)cc2)cc1	inactive: -29.6%
Cc1ccccc1OP(=O)(Nc1ccccn1)Oc1ccccc1C	inactive: -11.8%

SMILES	inhibition
CN(C)C(=O)Oc1noc2ccccc12	inactive: -16.3%
O=C(NC1CCS(=O)(=O)C1)NP(=S)(Oc1ccccc1)Oc1ccccc1 (stereo not drawn)	inactive: 0.52%
CCNC(=S)/N=C(\N)N[N+](=O)[O-]	inactive: -15.1%
c1ccc(-c2nn[nH]n2)c(-c2nn[nH]n2)c1	inactive: -5.28%
Cc1ccc(NP(=O)(Oc2cccc(C)c2)Oc2cccc(C)c2)nc1	inactive: -4.11%
C[C@H]1OP(=O)(Oc2ccccc2)C[C@@H]2O[C@@H]21 (stereo partly drawn)	inactive: -11.6%
C[C@@H]1C=CCP(=O)(Oc2ccccc2)O1 (stereo partly drawn)	inactive: -20.4%
CC(=O)Nc1ccc([As](=O)(O)O)c(O)c1	inactive: 7.78%
CC(=O)Nc1ccc(Oc2c([N+](=O)[O-])cc([N+](=O)[O-])cc2[N+](=O)[O-])cc1	inactive: -11.2%
CCOc1ccc(C2=NCC(CBr)S2)cc1 (stereo not drawn)	inactive: 13.1%
CC(C)(C)C(=O)NC(Sc1ccccc1)C(Cl)(Cl)Cl (stereo not drawn)	inactive: -12.6%
CC(C)C(=O)NC(Sc1ccccc1)C(Cl)(Cl)Cl (stereo not drawn)	inactive: 11.5%
CC(=O)NC(SC(=S)N(C)C)C(Cl)(Cl)Cl (stereo not drawn)	inactive: 4.17%
O=[N+]([O-])c1ncn(CCn2cnc([N+](=O)[O-])n2)n1	inactive: 4.03%
O=[As](O)(c1ccccc1)c1ccc(O)cc1	inactive: -16.8%
C(Cc1nn[nH]n1)Cc1nn[nH]n1	inactive: 12.5%
Nc1ccc([As](=O)(O)c2ccc([N+](=O)[O-])cc2)cc1	inactive: 12.4%
O=C(OC1CN2CCC1CC2)c1cccc(Cl)c1 (stereo not drawn)	inactive: 1.75%
O=P(Nc1ccccn1)(c1ccc(Br)cc1)c1ccc(Br)cc1	inactive: -5.35%
O=P(Nc1nc2ccccc2s1)(c1ccccc1)c1ccccc1	inactive: 23.1%
CC(C)(C)C(=O)NC(Sc1ccncn1)C(Cl)(Cl)Cl (stereo not drawn)	inactive: -2.22%

SMILES	inhibition
O=[N+]([O-])c1ncn(CCn2ncnc2[N+](=O)[O-])n1	inactive: 11.2%
O=[N+]([O-])c1cccc(NC2=NCC(CBr)S2)c1 (stereo not drawn)	inactive: -2.28%
Nc1ccc([As](=O)(O)c2ccc(N)cc2)cc1	inactive: -16.4%
C[N+]1=C2C=CC=CC=C2SC12C([N+](=O)[O-])=CC([N+](=O)[O-])=C[C-]2[N+](=O)[O-] (stereo not drawn)	inactive: -25%
CCN(/C(=N/P(=O)(N1CCOCC1)N1CCOCC1)N1CCOCC1)c1ccc(OC)cc1	inactive: -1.38%
CC(C)=N/N=C(\N)N[N+](=O)[O-]	inactive: -0.35%
Cc1ccc(NP(=O)(Oc2ccccc2)Oc2ccccc2)nc1	inactive: -32.5%
CCc1nc2c(n1)c1c(non1O)c1c2no[n+]1[O-]	inactive: -0.68%
Nc1cc(N)c2nonc2c1[N+](=O)[O-]	inactive: -34.3%
O=C(NC(Sc1ccncn1)C(Cl)(Cl)Cl)c1ccccc1 (stereo not drawn)	inactive: 2.33%
NC(=O)c1cc([N+](=O)[O-])cc([N+](=O)[O-])c1N	inactive: 19.5%
Cc1ccc(N/C(=N/P(=O)(N2CCOCC2)N2CCOCC2)N2CCOCC2)cc1	inactive: -14.1%
COc1ccccc1OP(=O)(Nc1ccc(C)cn1)Oc1ccccc1OC	inactive: 13.9%
Cc1ccc(OP(=O)(Nc2nccs2)Oc2ccc(C)cc2)cc1	inactive: 23.8%
CN1CCCC(OC(=O)C(c2ccccc2)c2ccccc2)C1 (stereo not drawn)	inactive: 9.83%
Clc1ccc(Cl)c(NC2=NCC(CBr)S2)c1 (stereo not drawn)	inactive: -27.6%
CCN(N=Nc1nonc1N)c1nonc1N	inactive: 19%
O=P(Nc1nc2ccc(Cl)cc2s1)(c1ccccc1)c1ccccc1	inactive: 10.4%
Cc1cc(SC(NC(=O)c2ccc(F)cc2)C(Cl)(Cl)Cl)ncn1 (stereo not drawn)	inactive: 4.36%
Cc1ccc(NP(=O)(Oc2ccccc2F)Oc2ccccc2F)nc1	inactive: 20.6%

— PubChem BioAssay AID743093 (The Scripps Research Institute Molecular Screening Center, 2013)
